Pooled drug test results. Numbers come from NIAID ChemDB, via PubChem.

All rows: tests in culture; organism: Candida albicans

Conditions beyond the fields shown may differ between rows. Two numbers with a dash give a range or band. An empty or dashed field is not shown. A number after MIC or MFC names an inhibition level or a share of isolates.

compound	strain or isolate	measure	read by	result
O=C1CS[C@H](c2ccc3c(c2)OCO3)N1c1nc(N2CCOCC2)n[nH]1	A39	MIC	broth dilution	1.04 µg/mL
Cc1cc(CN(C)C)c(C)n1-c1ccc(Cl)cc1	20 strains	Mean MIC	-	200 µg/mL
C[C@H]1[C@H](O)[C@@H](C)/C=C/C=C/C=C/C=C/C=C/C=C/C=C/[C@H](O[C@@H]2O[C@H](C)[C@@H](O)[C@H](N)[C@@H]2O)C[C@@H]2O[C@](O)(C[C@@H](O)C[C@@H](O)CC[C@H](O)[C@@H](O)C[C@@H](O)CC(=O)O[C@H]1C)C[C@H](O)[C@H]2C(=O)O	ATCC 90028	MIC100	broth dilution	0.5 µg/mL
C[C@H](N)C(=O)NC(C(=O)O)n1cc(F)c(=O)[nH]c1=O	B311	MIC	-	25 µg/mL
C=C(CCCCCNC1NCCC2c3ccc(OC)cc3CCN12)C(C)C	NFI2103	MIC	-	32 µg/mL
CC1(C)CC(=O)c2cc(C3CC(c4ccc(Cl)cc4)=NN3)[nH]c2C1	ATCC 2091	MIC	-	200 µg/mL
Clc1ccccc1C(c1ccccc1)(c1ccccc1)n1ccnc1	-	MIC	-	6.25 µg/mL
C=CCc1ccc(OC)c(OC)c1	3253	MIC90	turbidity	340 µg/mL
CCCCCCCCCCCCCCCC(=O)NC(CCCCN)C(=O)NC(CCCCN)C(N)=O	4900	MIC	broth dilution	4 µg/mL
CC1(C)CC(=O)c2cc(-c3nnc4n3-c3nc5ccccc5nc3NN4)[nH]c2C1	ATCC 2091	MIC	-	200 µg/mL
Cc1c(CNc2ccccc2)cc(-c2ccc(Cl)cc2)n1-c1ccc(Cl)cc1	20 strains	Mean MIC	-	>200 µg/mL
CC1(C)CC(=O)c2cc(C3CC(c4ccc(Cl)cc4)=NO3)[nH]c2C1	ATCC 2091	MIC	-	200 µg/mL
CC1(C)N=C(N)N=C(N)N1OCCCCCCCCON1C(N)=NC(N)=NC1(C)C	-	MIC	-	60–240 µg/mL
C(=Nc1nc2ccccc2[nH]1)c1nn(-c2ccccc2)cc1-c1ccccc1	-	MIC	agar	<0.016 µg/mL
CN1CCN(c2n[nH]c(N3C(=O)CS[C@@H]3c3ccc4c(c3)OCO4)n2)CC1	116.98	MIC80	broth dilution	1.56 µg/mL
Cc1c(CN(C)C)cc(-c2ccccc2)n1-c1ccccc1	20 strains	Mean MIC	-	69.8 µg/mL
CCOC(=O)c1c(C)[nH]c(O)c1/C=N/Nc1ccccc1	-	MIC	-	>100 µg/mL
C[C@H]1[C@H](O)[C@@H](C)/C=C/C=C/C=C/C=C/C=C/C=C/C=C/[C@H](O[C@@H]2O[C@H](C)[C@@H](O)[C@H](N)[C@@H]2O)C[C@@H]2O[C@](O)(C[C@@H](O)C[C@@H](O)CC[C@H](O)[C@@H](O)C[C@@H](O)CC(=O)O[C@H]1C)C[C@H](O)[C@H]2C(=O)O	BC759	MIC	-	1.25 µg/mL
CCOC(=O)c1c(C)[nH]c(O)c1C(C)=O	-	MIC	-	>100 µg/mL
Cc1ccc([C@H]2SC(C)C(=O)N2c2nc(N3CCN(C)CC3)n[nH]2)cc1	A39	MIC	broth dilution	10 µg/mL
C=C(CCCCCNC1NCCC2c3ccccc3CCN12)C(C)C	NFI0124	MIC80	-	16 µg/mL
OC(Cn1cncn1)(Cn1cncn1)c1ccc(F)cc1F	-	MIC50	-	0.39 µg/mL
Cc1c(CN2CCCC2)cc(-c2ccc(Cl)cc2)n1-c1ccc(F)cc1	20 strains	Mean MIC	-	107.2 µg/mL
CCCCCCCCC(O)[C@H]1O[C@H]1C(=O)NC1CC1	G2-sensitive	MIC	-	3.125 µg/mL
O=[N+]([O-])c1c[nH]c(Cl)c1Cl	-	MIC	-	100 µg/mL
Cc1c(CNc2ccccc2)cc(-c2ccccc2)n1-c1ccccc1	20 strains	Mean MIC	-	>200 µg/mL
CCCCC/C=C/CCC(=O)[C@H]1O[C@H]1C(=O)NCc1ccccc1	SC5314	MIC	-	12.5 µg/mL
Cc1ccc2c(c1)c1nnc(N3CC[N+](C)([O-])CC3)nc1n2C	2402E	MIC	-	>125 µg/mL
CCOC(=O)C(=NNc1nc2ccccc2[nH]1)C(=O)OCC	-	MIC	agar	<0.016 µg/mL
COc1ccc(-c2c3c(N)c4c(nc3nc3c2c(C)nn3-c2ccccc2)CCCC4)cc1	ATCC 10231	MIC80	broth dilution / absorbance	125 µg/mL
CC[C@@H]([C@H](C)O)n1ncn(-c2ccc(N3CCN(c4ccc(OC[C@@H]5CO[C@@](Cn6cncn6)(c6ccc(F)cc6F)C5)cc4)CC3)cc2)c1=O	17 isolates fluconazole-susceptible	Geometric mean MIC	-	0.015 µg/mL
O=C(Nc1nc2ccc(NC(=O)[C@@H]3CCC[C@H](NCc4ccc5ccccc5c4)C3)cc2s1)C1CCCC1	TIMM 0239	MIC	-	0.78 µM
Cc1c(CN2CCCC2)cc(-c2ccccc2)n1-c1ccc(Cl)cc1Cl	20 strains	Mean MIC	-	50 µg/mL
Cc1ccc(-c2c3c(N)c4c(nc3nc3c2c(C)nn3-c2ccccc2)CCCC4)cc1	CCC 126	MIC50	broth dilution / absorbance	15.6 µg/mL
C[C@H]1[C@H](O)[C@@H](C)/C=C/C=C/C=C/C=C/C=C/C=C/C=C/[C@H](O[C@@H]2O[C@H](C)[C@@H](O)[C@H](N)[C@@H]2O)C[C@@H]2O[C@](O)(C[C@@H](O)C[C@@H](O)CC[C@H](O)[C@@H](O)C[C@@H](O)CC(=O)O[C@H]1C)C[C@H](O)[C@H]2C(=O)O	12 isolates	MFC50	-	0.5 µg/mL
CC(C)=CCCCCCNC1NCCC2c3ccccc3CCN12	NFI2103	MIC80	-	16 µg/mL
Cc1ccc(-c2c3c(N)c4c(nc3nc3c2c(C)nn3-c2ccccc2)CCC4)cc1	CCC 126	MIC100	broth dilution / absorbance	125 µg/mL
Cc1ccc(CON2C(N)=NC(N)=NC23CCCCC3)c2ccccc12	-	MIC	-	62.5 µg/mL
COc1ccc(C2=CC(c3nnc4c(n3)Nc3ccccc3N4)C(c3cc4c([nH]3)CC(C)(C)CC4=O)=C2)cc1	ATCC 2091	MIC	-	200 µg/mL
COc1ccc2c(Cc3ccc(C(C)(C)C)cc3)c3[n+](cc2c1OC)CCc1cc2c(cc1-3)OCO2	ATCC11651	MIC	-	3.13 µg/mL
CC1(C)CC(=O)c2cc(C3=CC(c4ccc(Cl)cc4)=CC3c3nnc4c(n3)Nc3ccccc3N4)[nH]c2C1	ATCC 2091	MIC	-	200 µg/mL
CC1S[C@H](c2ccccc2)N(c2nc(N3CCOCC3)n[nH]2)C1=O	A39	MIC	broth dilution	25 µg/mL
COc1cc(CON2C(N)=NC(N)=NC2(C)C)cc(OC)c1	-	MIC	-	>240 µg/mL
OCc1ccc(O)c(N=Nc2nc3ccccc3[nH]2)c1	-	MIC	agar	<0.016 µg/mL
Cc1c(CN2CCN(C)CC2)cc(-c2ccc(Cl)cc2)n1-c1ccc(Cl)cc1	20 strains	Mean MIC	-	57.3 µg/mL
Cc1c(O)cccc1C(=O)N[C@@H](CSc1ccccc1)[C@H](O)CN1C[C@H]2CCCC[C@H]2C[C@H]1C(=O)NC(C)(C)C	I181A	MIC	-	>64 µg/mL
Cc1ccc(C(C)C)c(O)c1	H37	MLC	-	0.32 µg/mL
CCCCCCCCON1C(N)=NC(N)=NC1(C)C	-	MIC	-	>60 µg/mL
O=C(OCC=Nc1nc2ccccc2[nH]1)c1ccccc1Nc1ccnc2c(C(F)(F)F)cccc12	-	MIC	agar	<0.016 µg/mL
Cc1ccc2c(c1)c1nnc(N3CCN(C)CC3)nc1n2C	2005E	MIC	-	2 µg/mL
CCCCCCCCC(=O)[C@H]1O[C@H]1C(=O)N(CC)CC	SC5314	MIC	-	12.5 µg/mL
CC(=O)N1CCN(c2ccc(OC[C@H]3CO[C@](Cn4ccnc4)(c4ccc(Cl)cc4Cl)O3)cc2)CC1	KB	MIC	-	>4 µg/mL
Cc1ccc(-c2c3c(N)c4c(nc3nc3c2c(C)nn3-c2ccccc2)CCCCC4)cc1	CCC 130	MIC80	broth dilution / absorbance	31.2 µg/mL
Cc1c(CN2CCN(C)CC2)cc(-c2ccccc2)n1-c1ccc([N+](=O)[O-])cc1	20 strains	Mean MIC	-	200 µg/mL
C[C@@H](c1nc(-c2ccc(C#N)cc2)cs1)[C@](O)(Cn1cncn1)c1ccc(F)cc1F	E81022	MIC	-	≤0.006 µg/mL
COc1ccc2c(c1)CCN1C(NCCCCCC=C(C)C)NCCC21	NFI2103	MIC80	-	32 µg/mL
CCOC(=O)C(C#N)=NNc1nc2ccccc2[nH]1	-	MIC	agar	<0.016 µg/mL
CC1(C)CC(=O)c2cc(C3CC(c4ccc(Cl)cc4)=NN3C(N)=S)[nH]c2C1	ATCC 2091	MIC	-	200 µg/mL

8 of the rows above, restated:

compound	strain or isolate	measure	read by	result
CCCCCCCCCCCCCCCC(=O)NC(CCCCN)C(=O)NC(CCCCN)C(N)=O	4900	MIC	broth dilution	4 µg/mL
COc1cc(CON2C(N)=NC(N)=NC2(C)C)cc(OC)c1	-	MIC	-	>240 µg/mL
Cc1ccc(CON2C(N)=NC(N)=NC23CCCCC3)c2ccccc12	-	MIC	-	62.5 µg/mL
O=C1CS[C@H](c2ccc3c(c2)OCO3)N1c1nc(N2CCOCC2)n[nH]1	A39	MIC	broth dilution	1.04 µg/mL
Cc1c(CN(C)C)cc(-c2ccccc2)n1-c1ccccc1	20 strains	Mean MIC	-	69.8 µg/mL
CC1(C)N=C(N)N=C(N)N1OCCCCCCCCON1C(N)=NC(N)=NC1(C)C	-	MIC	-	60–240 µg/mL
C(=Nc1nc2ccccc2[nH]1)c1nn(-c2ccccc2)cc1-c1ccccc1	-	MIC	agar	<0.016 µg/mL
CC1S[C@H](c2ccccc2)N(c2nc(N3CCOCC3)n[nH]2)C1=O	A39	MIC	broth dilution	25 µg/mL